Results of unrelated studies side by side (data: NIAID ChemDB).

All rows: whole-cell or culture tests; organism: HIV-1; method: p24; read-out: EC90

Lines come from different laboratories, so protocols vary.

compound,cells,mutations,strain,value
CC1(C)C2CC[C@]3(C)C(C(=O)C=C4C5C[C@@](C)(C(=O)O)CC[C@]5(C)CC[C@]43C)[C@@]2(C)CC[C@@H]1O[C@@H]1O[C@H](C(=O)[O-])[C@@H](O[C@@H]2O[C@H](C(=O)[O-])[C@@H](OS(=O)(=O)[O-])[C@H](OS(=O)(=O)[O-])[C@H]2OS(=O)(=O)[O-])[C@H](OS(=O)(=O)[O-])[C@H]1OS([O-])(O)O,MT-4,,EVK,>1000 µg/mL
CC(C)CN(C[C@@H](O)[C@H](Cc1ccccc1)NC(=O)[C@H](CC(N)=O)NC(=O)c1ccc2ccccc2n1)S(=O)(=O)N(C)C,CEM,,IIIB,<0.1 µM
CSc1cc(N)nc(S[C@@H](C)c2cc3ccoc3cn2)n1,MT-4,,IIIB,0.008 µM
CC(C)CN(C[C@@H](O)[C@H](Cc1ccccc1)NC(=O)[C@H](CC(N)=O)NC(=O)c1ccc2ccccc2n1)S(=O)(=O)c1cccc2nonc12,CEM,,IIIB,≤0.1 µM
COc1ccc(S(=O)(=O)N(CC(C)C)CC(F)(F)C(=O)[C@@H](Cc2ccccc2)NC(=O)O[C@H]2CCOC2)cc1,CEM,,IIIB,1 µM
Cc1cn([C@H]2C=C[C@@H](COC(=O)CCCCCCCCCCCN=[N+]=[N-])O2)c(=O)[nH]c1=O,MT-4,,,0.75 µM
Cc1cc(C)cc(S(=O)(=O)c2c(C(=O)NC(C)C(N)=O)[nH]c3ccc(Cl)cc23)c1,C8166,,IIIB,0.004 µM
O=C(O)c1cc(-n2cccc2)ccc1Cl,PBMC + MT-2,,BCF02 R5 GROUP O,54.5 µM
COc1ccc(S(=O)(=O)N(CC(C)C)C[C@@H](O)CCN(CC2CCCC2)S(=O)(=O)c2nccs2)cc1,CEM,,IIIB,1 µM
Nc1nc2c(ncn2[C@H]2CC[C@@H](CO)O2)c(=O)[nH]1,PBL(PHA STIM.) + PBL,,LAI,<2.5 µM
Cc1cc(C)cc(S(=O)(=O)c2c(C(=O)/C=C/C(N)=O)[nH]c3ccc(Cl)cc23)c1,C8166,RT-K103R,IIIB(K-103R),>100 µM
COc1ccc(S(=O)(=O)N(CC2CCCC2)C[C@@H](O)[C@H](Cc2ccccc2)NC(=O)OCc2cccnc2)cc1,CEM,,IIIB,≤0.1 µM
COc1c(Cl)ccc2c1[C@@](C#Cc1cccnc1)(C(F)(F)F)NC(=O)N2,MT-4,RT-K103N,,0.147 µM
CC(=O)Nc1ccc(S(=O)(=O)N(CC(C)C)C[C@@H](O)[C@H](Cc2ccccc2)NC(=O)[C@H](CC(N)=O)NC(=O)c2ccc3ccccc3n2)cc1F,CEM,,IIIB,≤0.1 µM
O=C1Nc2ccc(Cl)c3c2[C@](C(F)(F)F)(C=C(c2cccnc2)O3)N1,MT-4,RT-K103N,,0.076 µM
O=C(NC(Cc1ccccc1)C(=O)C(=O)C(=O)N(CC1CCCC1)S(=O)(=O)c1ccccc1)OC1COCOC1,CEM,,IIIB,1 µM
CCCCCCCCCCCCCC(=O)OC[C@@H]1C=C[C@H](n2cc(C)c(=O)[nH]c2=O)O1,MT-4,,,1.1 µM
O=C1Nc2ccc(Cl)c(O)c2[C@@](C#CC2CC2)(C(F)(F)F)N1,MT-4,RT-K103N,,0.028 µM
CC1(C)C2CC[C@@]3(C)C4CC[C@@]5(C)CC[C@](C)(C(=O)O)C[C@H]5C4=CC(=O)C3[C@@]2(C)CC[C@@H]1O[C@@H]1O[C@H](C(=O)O)[C@@H](O[C@@H]2O[C@H](C(=O)O)[C@@H](O)[C@H](O)[C@H]2O)[C@H](O)[C@H]1O,MT-4,,EVK,950 µg/mL
CC(C)CN(C[C@@H](O)[C@H](Cc1ccccc1)NC(=O)[C@H](CC(N)=O)NC(=O)c1ccc2ccccc2n1)S(=O)(=O)c1ccc(-c2ccccn2)s1,CEM,,IIIB,<0.1 µM
Cc1cc(C)cc(S(=O)(=O)c2c(C(=O)NNCCO)[nH]c3ccc(Cl)cc23)c1,C8166,RT-K103R V179D P225H,EFV-resistant (RT K103R V179D P225H),0.2 µM
O=C1Nc2ccc(Cl)c3c2[C@](C(F)(F)F)(C=C(c2ccccc2)O3)N1,MT-4,RT-K103N,,0.046 µM
CCCCCCNc1ncnc2c1ncn2[C@H]1CC[C@@H](CO)O1,JM,,GB8,>200 µM
Cc1cc(C)cc(S(=O)(=O)c2c(C(=O)NCC(=O)NC(C)C(=O)NN)[nH]c3ccc(Cl)cc23)c1,C8166,,IIIB,0.12 µM
COc1ccc(S(=O)(=O)N(CC(O)CN(CCc2ccccc2)C(=O)[C@@H](NC(=O)OCc2ccccc2)C(C)C)CC2CCCC2)cc1,CEM,,IIIB,0.1 µM
CCSCCCCCCCCCCC(=O)OC[C@@H]1C=C[C@H](n2cc(C)c(=O)[nH]c2=O)O1,MT-4,,,0.65 µM
CC(C)CN(CC(F)(F)C(=O)[C@H](Cc1ccccc1)NC(=O)O[C@H]1CCOC1)S(=O)(=O)c1ccccc1,CEM,,IIIB,1 µM
Nc1nc(=O)n([C@H]2C=C[C@@H](CO)O2)cc1F,PBMC,RT-M184V,RT-M184V XM-M184V,1.3 µM
CC(C)CN(C[C@@H](O)[C@H](Cc1ccccc1)NC(=O)OC1CCOC1)S(=O)(=O)c1ccc(O)cc1,CEM,,IIIB,≤0.1 µM
CC(C)c1ncc(CS(=O)(=O)N(CC2CCCC2)C[C@@H](O)CN(CCc2ccccc2)C(=O)c2ccccc2)s1,CEM,,IIIB,1 µM
CC(=O)Nc1ccc(S(=O)(=O)N(CC(C)C)C[C@@H](O)[C@H](Cc2ccccc2)NC(=O)[C@H](CC(N)=O)NC(=O)c2ccc3ccccc3n2)cc1F,CEM,,IIIB,<0.1 µM
COc1ccc(S(=O)(=O)N(CC(C)C)C(=O)C(=O)C(=O)[C@@H](Cc2ccccc2)NC(=O)OC2COCOC2)cc1,CEM,,IIIB,1 µM
COc1ccc(S(=O)(=O)N(CC(C)C)C[C@@H](O)[C@H](Cc2ccccc2)NC(=O)OC2CCOC2)cc1,CEM,,IIIB,≤0.1 µM
COc1ccc(S(=O)(=O)N(CC2CCCC2)C[C@@H](O)CN(CCc2ccccc2)C(=O)c2cccc(O)c2C)cc1,CEM,,IIIB,0.1 µM
Cc1cc(C)cc(S(=O)(=O)c2c(C(=O)NC(C)C(=O)NN)[nH]c3ccc(Cl)cc23)c1,C8166,,IIIB,0.07 µM

For reference, 3 entries again:

compound | cells | mutations | strain | value
CC(=O)Nc1ccc(S(=O)(=O)N(CC(C)C)C[C@@H](O)[C@H](Cc2ccccc2)NC(=O)[C@H](CC(N)=O)NC(=O)c2ccc3ccccc3n2)cc1F | CEM |  | IIIB | <0.1 µM
CSc1cc(N)nc(S[C@@H](C)c2cc3ccoc3cn2)n1 | MT-4 |  | IIIB | 0.008 µM
O=C1Nc2ccc(Cl)c3c2[C@](C(F)(F)F)(C=C(c2ccccc2)O3)N1 | MT-4 | RT-K103N |  | 0.046 µM

ECn is the concentration giving n% inhibition of infection, replication or growth. Blank or dashed fields: not listed here.